The text below walks through data of patent publication US9307782B2, “Mannanase produced from Cellulosimicrobium sp. strain HY-13” (Korea Research Institute of Bioscience and Biotechnology, priority 2011, dated 2016).

This data set in a line: Optimum reaction temperature and pH of the mannanase. The class given is biochemical. As to conditions: maximum degrading activity with locust bean gum.

B1: Mannanase: Wild type β-1,4-mannanase of Bacillus subtilis WY34 (protein)
chain: MRRLFAIVLGAVLALLAVPALAQGASVASDGFSVQDGRIYDANGNRFVPVGVNHAHAWYPSQTQSFADIRAAGANTVRVVLSGGRYGTSSAADVSAVVERCKQNQLVCILENHDTTGYGEDGSARSLASAAQYWTSIASVLRGQERYVMINIGNEPFGNSGFQSWTTDTIAAIRTLRAAGLDHTLVVDAPNWGQDWSFTMRDNAPTVAAADGNVVFSVHMYGVFDTGAEVRAYLDSFTSRGLPIMVGEFGDNHSDGNPDEATIMSYTRSQGIGMLGWSWSGNGGGVEYLDMVNGFSASSLTPWGQRFVHGADGLRARNAPAASVYGGDGGDGDGGAGTAPNGYPYCASASSDPDGDGWGWESSASCVVRGSSADTGSGGGSGSGSTAPNGYPYCASASSDPDGDGWGWESSASCVVRGSSADR
modifications: cellulosimicrobium
notes: Wild type β-1,4-mannanase of Bacillus subtilis WY34
With B1, the Opt. temp. amounted to 50 °C.

B2: rManH: Recombinant GH5 β-1,4-mannanase of Cellulosimicrobium sp. HY-13 produced in E. coli; SEQ. ID. NO: 1; approximately 44 kDa (protein)
chain: MRRLFAIVLGAVLALLAVPALAQGASVASDGFSVQDGRIYDANGNRFVPVGVNHAHAWYPSQTQSFADIRAAGANTVRVVLSGGRYGTSSAADVSAVVERCKQNQLVCILENHDTTGYGEDGSARSLASAAQYWTSIASVLRGQERYVMINIGNEPFGNSGFQSWTTDTIAAIRTLRAAGLDHTLVVDAPNWGQDWSFTMRDNAPTVAAADGNVVFSVHMYGVFDTGAEVRAYLDSFTSRGLPIMVGEFGDNHSDGNPDEATIMSYTRSQGIGMLGWSWSGNGGGVEYLDMVNGFSASSLTPWGQRFVHGADGLRARNAPAASVYGGDGGDGDGGAGTAPNGYPYCASASSDPDGDGWGWESSASCVVRGSSADTGSGGGSGSGSTAPNGYPYCASASSDPDGDGWGWESSASCVVRGSSADR
modifications: cellulosimicrobium
notes: Recombinant GH5 β-1,4-mannanase of Cellulosimicrobium sp; HY-13 produced in E. coli; ID; NO: 1; approximately 44 kDa
B2 gave an Opt. temp. of 50 °C.
